Assay results as given in patent publication US11820973B2, “Methods and system for interfering with viability of bacteria and related compounds and compositions” (CALIFORNIA INSTITUTE OF TECHNOLOGY, priority 2011, dated 2023).

What was measured:
[1] = system: P. aeruginosa PA14 siderophore null strain (ΔpvdAΔpchE); test: Flow cell biofilm development, siderophore null strain, 1% TSB; details: 1.0 μM Fe(OH)3(s); for Avg. thickness of biomass: ΔpvdAΔpchE, calculated for the area covered by biomass, 10 μM PCA or PYO
[2] = system: P. aeruginosa PA14 wild type and feoB::MAR2xT7 mutant; test: Planktonic growth in 1% TSB-based biofilm medium; details: amounts used in the biofilm experiments, batch cultures, 37° C.
[3] = system: P. aeruginosa PA14 feoB::MAR2xT7 mutant; test: Flow cell biofilm development, feoB::MAR2xT7 mutant, 1% TSB with conalbumin; details: PCA added to conalbumin-treated medium

O=C(O)c1cccc2nc3ccccc3nc12 [PCA, Phenazine-1-carboxylic acid]
Avg. thickness of biomass ([1]; Day 2): 12.6 ± 1.4 μm
Avg. thickness of biomass ([1]; Day 4): 10.8 ± 0.9 μm
Avg. thickness of biomass ([1]; Day 6): 15.1 ± 4.4 μm
Effect on planktonic growth [2]: had no effect on the growth of either strain
Rescue of the conalbumin-induced biofilm defect [3]: failed to rescue the conalbumin-induced biofilm defect

Cn1c2cccc(=O)c-2nc2ccccc21 [PYO, Pyocyanin]
Rescue of biofilm formation by the ΔpvdAΔpchE mutant ([1]; 10 μM PCA or PYO added to 1% TSB): rescued the biofilm defect regardless of whether Fe(OH)3(s) was present
Avg. thickness of biomass ([1]; Day 2): 13.5 ± 0.4 μm
Avg. thickness of biomass ([1]; Day 4): 10.1 ± 0.4 μm
Avg. thickness of biomass ([1]; Day 6): 21.4 ± 2.1 μm
Effect on planktonic growth [2]: does not inhibit planktonic growth
